Pooled drug test results. Numbers come from NIAID ChemDB, via PubChem.

Common to all: whole-cell or culture tests; species: HIV-1

ECn: concentration that inhibits the pathogen or its effect by n%. Neighbouring rows are from separate reports. Fold resistance: result on the changed form divided by that on wild type.

CC(C)C1=C2[C@H]3CC[C@@H]4[C@@]5(C)CC[C@H](OC(=O)[C@H]6C[C@@H](C(=O)O)C6(C)C)C(C)(C)[C@@H]5CC[C@@]4(C)[C@]3(C)CC[C@@]2([C@@H](O)CNC(=O)c2nc3ccccc3[nH]2)CC1=O ; cell line: MT-2 ; measure: EC50 ; read by: p24 / ELISA ; strain or isolate: 92HT599 ; value: <1 µM
Cc1cc(S(N)(=O)=O)ccc1NC(=O)COc1ccc(Cl)cc1C(=O)c1cc(F)cc(F)c1 ; cell line: HeLa + HELA CD4+ ; measure: fold resistance ; changes: RT-K103N V108I ; read by: β-galactosidase ; strain or isolate: HXB2 ; value: ~1
COc1ccc(S(=O)(=O)N(CC(C)C)C(=O)C(=O)C(=O)[C@@H](Cc2ccccc2)NC(=O)OC(C)(C)C)cc1 ; cell line: CEM ; measure: EC90 ; read by: p24 ; strain or isolate: IIIB ; value: 1 µM
CCc1cc(C#N)cc(C(=O)c2cc(Cl)ccc2OCC(=O)Nc2ccc(S(N)(=O)=O)cc2C)c1 ; cell line: HeLa + HELA CD4+ ; measure: fold resistance ; changes: RT-K103N G190A ; read by: β-galactosidase ; strain or isolate: HXB2 (RT-K103N G190A) Recombinant ; value: ~1
CC(C)C1=C2[C@H]3CC[C@@H]4[C@@]5(C)CC[C@H](OC(=O)[C@H]6C[C@@H](C(=O)O)C6(C)C)C(C)(C)[C@@H]5CC[C@@]4(C)[C@]3(C)CC[C@@]2(CCNCC2CCC2)CC1=O ; cell line: MT-2 ; measure: EC50 ; read by: p24 / ELISA ; strain or isolate: 92HT599 ; value: <1 µM
O=C1Nc2ccc(Cl)cc2[C@@](/C=C/C2CC2)(C(F)(F)F)N1 ; measure: EC90 ; changes: RT-L100I ; value: 0.02 µM
CC(C)CN(CC(O)CNc1cscc1S(=O)(=O)c1ccccc1)S(=O)(=O)c1ccccc1 ; cell line: CEM ; measure: EC90 ; read by: p24 ; strain or isolate: IIIB ; value: 1 µM
O=C(O)c1cc(-n2cccc2)ccc1Cl ; cell line: MT-2 ; measure: EC90 ; read by: p24 ; strain or isolate: AZT-resistant X4 CLADE B ; value: 94.28 µM
CC(C)C1=C2[C@H]3CC[C@@H]4[C@@]5(C)CC[C@H](OC(=O)[C@H]6C[C@@H](C(=O)O)C6(C)C)C(C)(C)[C@@H]5CC[C@@]4(C)[C@]3(C)CC[C@@]2(CC(=O)NC(CCCCN)CNC(=O)c2ccc(Cl)cc2)CC1=O ; cell line: MT-2 ; measure: EC50 ; read by: p24 / ELISA ; strain or isolate: 92HT599 ; value: <1 µM
O=C1Nc2ccc(F)c(F)c2[C@@](C#CC2CC2)(C(F)(F)F)N1 ; measure: EC90 ; changes: RT-K103N V108I ; value: ~0.02 µM
CC(C)C1=C2[C@H]3CC[C@@H]4[C@@]5(C)CC[C@H](OC(=O)[C@H]6C[C@@H](C(=O)O)C6(C)C)C(C)(C)[C@@H]5CC[C@@]4(C)[C@]3(C)CC[C@@]2(CC(=O)NCc2ccc(O[C@H]3CCOC3)cc2)CC1=O ; cell line: MT-2 ; measure: EC50 ; read by: p24 / ELISA ; strain or isolate: 92HT599 ; value: <1 µM
Cc1cc(OCCCN2CCOCC2)ccc1NC(=O)COc1ccc(Cl)cc1C(=O)c1cccs1 ; cell line: HeLa + HELA CD4+ ; measure: fold resistance ; changes: RT-K103N ; read by: β-galactosidase ; strain or isolate: HXB2 ; value: ~1
CC(C)C1=C2[C@H]3CC[C@@H]4[C@@]5(C)CC[C@H](OC(=O)[C@H]6C[C@@H](C(=O)O)C6(C)C)C(C)(C)[C@@H]5CC[C@@]4(C)[C@]3(C)CC[C@@]2(CCNC(=O)c2ccccn2)CC1=O ; cell line: MT-2 ; measure: EC50 ; read by: p24 / ELISA ; strain or isolate: 92HT599 ; value: <1 µM
Cc1cc2cn[nH]c2cc1NC(=O)COc1ccc(Cl)cc1C(=O)c1cccc(C#N)c1 ; cell line: HeLa + HELA CD4+ ; measure: EC50 ; changes: RT-K103N ; read by: β-galactosidase ; strain or isolate: HXB2 ; value: <0.01 µM
Nc1cccc(S(=O)(=O)N(CC2CCCC2)C[C@@H](O)CN(CCc2ccccc2)C(=O)c2ccncc2)c1 ; cell line: CEM ; measure: EC90 ; read by: p24 ; strain or isolate: IIIB ; value: 0.1 µM
Cc1cc(C#N)cc(C(=O)c2cc(Cl)ccc2OCC(=O)Nc2ccc(S(N)(=O)=O)cc2C)c1 ; cell line: MT-4 ; measure: fold resistance ; changes: RT-Y181C ; read by: cytopathic effect / propidium iodide ; strain or isolate: Nevirapine-resistant (RT Y181C) ; value: ~1
O=C(Nc1cscc1S(=O)(=O)c1ccccc1)C(=O)C(=O)N(CC1CCCC1)S(=O)(=O)c1ccccc1 ; cell line: CEM ; measure: EC90 ; read by: p24 ; strain or isolate: IIIB ; value: 1 µM
Cc1cc(S(N)(=O)=O)ccc1NC(=O)COc1ccc(Cl)cc1C(=O)c1cccc(C#N)n1 ; cell line: HeLa + HELA CD4+ ; measure: fold resistance ; changes: RT-V106A Y181C ; read by: β-galactosidase ; strain or isolate: HXB2 ; value: ~1
CC(C)C1=C2[C@H]3CC[C@@H]4[C@@]5(C)CC[C@H](OC(=O)[C@H]6C[C@@H](C(=O)O)C6(C)C)C(C)(C)[C@@H]5CC[C@@]4(C)[C@]3(C)CC[C@@]2([C@@H](O)CNC(=O)C(C)(C)NC(=O)c2ccc(S(C)(=O)=O)cc2)CC1=O ; cell line: MT-2 ; measure: EC50 ; read by: p24 / ELISA ; strain or isolate: 92HT599 ; value: <1 µM
Cc1cc(OCCCS(N)(=O)=O)ccc1NC(=O)COc1ccc(Cl)cc1C(=O)c1cc(F)cc(C(F)(F)F)c1 ; cell line: HeLa + HELA CD4+ ; measure: fold resistance ; changes: RT-V108I Y181C ; read by: β-galactosidase ; strain or isolate: HXB2 ; value: ~1
CC(C)C1=C2[C@H]3CC[C@@H]4[C@@]5(C)CC[C@H](OC(=O)[C@H]6C[C@@H](C(=O)O)C6(C)C)C(C)(C)[C@@H]5CC[C@@]4(C)[C@]3(C)CC[C@@]2([C@@H](O)CNC(=O)[C@H](NC(=O)c2ccc(Cl)cc2)C(C)O)CC1=O ; cell line: MT-2 ; measure: EC50 ; read by: p24 / ELISA ; strain or isolate: 92HT599 ; value: <1 µM